The values that follow come from PubChem BioAssay AID1117319 (Southern Research Institute, 2015).

Chains of the proteins cited; added tags and fusions are not shown. Lines headed by an entry give the natural chain unless they say otherwise; changes in a name come on top.
UniProt P69720: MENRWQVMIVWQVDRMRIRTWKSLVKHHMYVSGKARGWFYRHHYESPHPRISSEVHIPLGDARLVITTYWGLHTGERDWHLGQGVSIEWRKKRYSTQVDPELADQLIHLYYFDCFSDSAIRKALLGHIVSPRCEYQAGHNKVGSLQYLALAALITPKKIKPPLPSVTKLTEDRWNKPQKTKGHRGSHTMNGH
UniProt P69721: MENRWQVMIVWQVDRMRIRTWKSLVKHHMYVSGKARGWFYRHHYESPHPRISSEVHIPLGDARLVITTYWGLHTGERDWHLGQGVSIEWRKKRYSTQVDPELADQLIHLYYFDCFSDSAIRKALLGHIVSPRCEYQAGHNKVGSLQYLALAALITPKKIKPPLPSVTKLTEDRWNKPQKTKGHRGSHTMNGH
UniProt P69722: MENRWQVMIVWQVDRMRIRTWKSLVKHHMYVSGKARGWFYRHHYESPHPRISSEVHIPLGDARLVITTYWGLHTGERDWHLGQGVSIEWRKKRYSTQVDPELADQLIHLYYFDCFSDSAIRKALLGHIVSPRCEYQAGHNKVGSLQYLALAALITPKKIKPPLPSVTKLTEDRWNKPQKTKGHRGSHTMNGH
UniProt P69723: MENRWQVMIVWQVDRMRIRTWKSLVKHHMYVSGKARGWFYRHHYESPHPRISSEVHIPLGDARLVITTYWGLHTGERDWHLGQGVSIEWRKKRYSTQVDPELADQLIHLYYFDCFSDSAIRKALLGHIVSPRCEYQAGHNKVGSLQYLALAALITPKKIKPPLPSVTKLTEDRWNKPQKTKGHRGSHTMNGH
UniProt Q9HC16: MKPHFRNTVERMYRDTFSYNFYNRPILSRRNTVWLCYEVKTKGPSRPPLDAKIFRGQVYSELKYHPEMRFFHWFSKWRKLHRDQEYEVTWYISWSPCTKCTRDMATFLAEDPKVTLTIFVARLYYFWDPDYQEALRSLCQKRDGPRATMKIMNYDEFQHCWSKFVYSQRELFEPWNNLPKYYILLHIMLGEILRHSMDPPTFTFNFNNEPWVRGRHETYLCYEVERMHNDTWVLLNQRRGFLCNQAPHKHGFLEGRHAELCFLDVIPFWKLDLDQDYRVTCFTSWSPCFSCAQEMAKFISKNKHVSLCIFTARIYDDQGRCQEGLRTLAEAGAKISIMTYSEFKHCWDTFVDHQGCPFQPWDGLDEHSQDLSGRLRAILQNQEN

SMILES strings stand for the structures. “And” between values parts separate entries of the source, which are not always exact repeats. Identical values can stand only once. The list shows a part of the results. Results filed as inconclusive are left out. The source made the active and inactive calls.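 The calls were made as follows: active = inhibition above a set limit at one or more doses, reproduced on every date tested; inconclusive = results disagree between test dates, or hit never tested in dose response; inactive = the rest.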

For this test, the target named is Virion infectivity factor (Human immunodeficiency virus type 1 group M subtype B (isolate BH10)) + Virion infectivity factor (Human immunodeficiency virus type 1 group M subtype B (isolate BRU/LAI)) + Virion infectivity factor (Human immunodeficiency virus type 1 group M subtype B (isolate PCV12)) + Virion infectivity factor (Human immunodeficiency virus type 1 group M subtype B (isolate HXB2)) + DNA dC->dU-editing enzyme APOBEC-3G (Homo sapiens) (UniProt P69720+P69721+P69722+P69723+Q9HC16). In words: inhibitors of Vif binding to APOBEC3G peptide, primary screen, biochemical, TR-FRET, GST-Vif 1-94, biotin-A3G peptide, dose response retest (AID 1117319).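 Also: Vif residues 1-94 fused to GST binding biotinylated APOBEC3G peptide 110-148; 0% = full assay without inhibitor and 100% = GST in place of GST-Vif.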 Conditions: active compounds read high.
For the compound `Cc1c2c(nc3ccccc13)SC(C(Cl)Cl)C2` (stereo unspecified), the inhibition (usually the relative decrease from the control value, in per cent) was inactive: -8.21%.
Next, `Cc1cc(=O)[nH]c(N[N+](=O)[O-])n1`: inactive: 9.72%.
Next, `O=C(OC1CN2CCC1CC2)C12CC3CC(CC(C3)C1)C2` (stereo unspecified): inactive: -8.17%; `O=P1(N(CCCl)CCCl)Nc2ccccc2N1`: inactive: -3.86%.
Take `COc1cc(I)ccc1[As](=O)(O)O`: the inhibition was inactive: 31.1%.
Next, `COc1ccc2nc(NP(=O)(c3ccccc3)c3ccccc3)sc2c1`: inactive: -2%.
The figure for `O=[N+]([O-])c1cc(Oc2ccc([N+](=O)[O-])cc2C(F)(F)F)cc([N+](=O)[O-])c1` is inactive: 2.67%.
The figure for `COc1ccc(N/C(=N/P(=O)(N2CCOCC2)N2CCOCC2)N2CCOCC2)cc1` is inactive: 22.7%; for `O=[N+]([O-])c1ccc(-c2cc([N+](=O)[O-])c(O)c([N+](=O)[O-])c2)cc1` it is inactive: 9.62%.
With `COc1cc(C(=O)NCC2(N3CCOCC3)CCCCC2)ccc1OCC(C)C`, the inhibition is inactive: -7.47%.
Next, `O=[As](O)(c1ccc(O)cc1)c1ccccc1O`: inactive: 9.53%; `Cc1ccc(OP(=O)(Nc2ccc([N+](=O)[O-])cn2)Oc2ccc(C)cc2)cc1`: inactive: 3.68%.
Next, `ClCCSc1nnc(-c2cccnc2)o1`: inactive: -0.69%; `COC(=O)C1(C)COP(=O)(N2CCCCCC2)OC1` (stereo unspecified): inactive: -10%; `CC(C)c1ccc(OP(=O)(Nc2ccccn2)Oc2ccccc2F)cc1` (stereo unspecified): inactive: -4.77%.
Next, `O=[N+]([O-])c1cc([N+](=O)[O-])c(-c2ccn[nH]2)s1`: inactive: 16.2%.
Regarding `CC(C)NC(=O)NP(=O)(Oc1ccccc1)Oc1ccccc1`, the inhibition was inactive: 17.4%.
The figure for `O=C(OC1CN2CCC1CC2)c1cccc2[nH]cnc12` (stereo unspecified) is inactive: -2.11%.
Next, `CCN(CC)C(=S)SC(NC=O)C(Cl)(Cl)Cl` (stereo unspecified): inactive: -5.82%; `O=C(O)C(O)c1ccc(N(CCCl)CCCl)cc1` (stereo unspecified): inactive: -1.77%; `CCOC(=O)Nc1ccc([As](=O)(O)O)c(O)c1`: inactive: -10.2%.
Next, `CC1CCNP(=O)(N(CCCl)CCCl)O1` (stereo unspecified): inactive: -14.9%; `COP(=O)(OC)N1CC1c1ccccc1` (stereo unspecified): inactive: -5.25%; `CCOC(=O)Nc1cccc([As](=O)(O)O)c1`: inactive: 3.68%.
Take `Cc1cc(SC(NC=O)C(Cl)(Cl)Cl)ncn1` (stereo unspecified): the inhibition is inactive: 13.5%.
The figure for `O=P(Nc1ccccn1)(c1cccc2ccccc12)c1cccc2ccccc12` is inactive: 7.11%; for `COP1(=S)c2c(C)nn(CCC#N)c2N=C(c2ccc(F)cc2)N1C` (stereo unspecified) it is inactive: 2.03%; for `O=C(Nc1ccncc1[N+](=O)[O-])c1ccc([N+](=O)[O-])cc1[N+](=O)[O-]` it is inactive: -1.44%.
Next, `O=C(COc1ccccc1)OC1CN2CCC1CC2` (stereo unspecified): inactive: -7.4%; `CSc1ccc(Nc2c([N+](=O)[O-])cc([N+](=O)[O-])cc2[N+](=O)[O-])cc1`: inactive: 7%.
Consider `O=C(OC1CN2CCC1CC2)c1cccc([N+](=O)[O-])c1` (stereo unspecified), for which the inhibition is inactive: 3.33%.
The figure for `CCC(C)N(CC(C)C)C(=S)SC(NC(C)=O)C(Cl)(Cl)Cl` (stereo unspecified) is inactive: -7.95%.
For `CCOP(=O)(NC(=NC(C)c1ccccc1)NC(C)c1ccccc1)OCC` (stereo unspecified), the inhibition was inactive: 0.3%.
As for `O=P1(Nc2ccccn2)COc2ccccc2OC1`, the inhibition was inactive: -1.5%.
The figure for `CCOP(=O)(Nc1ccc(C)cn1)OCC` is inactive: -0.64%; for `CC(C)(C)C(=O)NC(Sc1ncccn1)C(Cl)(Cl)Cl` (stereo unspecified) it is inactive: -14.8%.
Next, `Clc1n[nH]nc1-c1nn[nH][15n]1`: inactive: 7.93%; `O=P1(N(CCCl)CCCl)NCCC(C(F)(F)F)O1` (stereo unspecified): inactive: -2.74%.
On to `COc1ccccc1CNC(=O)COC(=O)C(O)(c1ccccc1)c1ccccc1`, for which the inhibition is inactive: -0.63%.
The figure for `CN(C(=O)Cc1ccc(Cl)c(Cl)c1)[C@@H]1CCCC[C@H]1N1CCCC1` is inactive: -11.2%.
Next, `CC(C)/C=N\N=C(\N)N[N+](=O)[O-]`: inactive: 3.2%.
The figure for `CC1(CBr)Cn2c(nc3ccccc3c2=O)S1` (stereo unspecified) is inactive: -1.5%; for `O=[As](O)(c1ccccc1Br)c1ccccc1Br` it is inactive: -5.37%; for `Cc1ccc(C(=O)OC2CN3CCC2CC3)cc1` (stereo unspecified) it is inactive: -5.29%.
For `CC1CCC(C(C)C)C(OP(=O)(Nc2ccccn2)c2ccccc2)C1` (stereo unspecified), the inhibition is inactive: 1.83%.
The figure for `Cc1nn(-c2ccccc2)c2c1P(=O)(N1CCOCC1)N(C)C(c1ccccc1)=N2` (stereo unspecified) is inactive: -3.13%; for `CN(C)C1(CNC(=O)c2ccc(S(C)(=O)=O)cc2)CCCCC1` it is inactive: 26.4%.
For the compound `CCCC1OP(=O)(Nc2ccccc2)OCC1CC` (stereo unspecified), the inhibition was inactive: -9.95%.
Next, `O=C(/C=C/c1ccccc1)OC1CN2CCC1CC2` (stereo unspecified): inactive: 2.46%; `O=P1(Nc2ncccn2)COc2ccccc2OC1`: inactive: -3.4%; `O=[As](O)(c1cccs1)c1cccs1`: inactive: 2.34%.
Regarding `Cc1ccc(OCC(=O)OC2CN3CCC2CC3)cc1` (stereo unspecified), the inhibition is inactive: 2.55%.
Next, `NS(=O)(=O)c1cccc(NC(=O)COC(=O)C(O)(c2ccccc2)c2ccccc2)c1`: inactive: 11.7%; `O=P1(Nc2ccc(Br)cn2)COc2ccccc2OC1`: inactive: -1.08%.
Next, `O=P(Nc1nccs1)(Oc1ccccc1)Oc1ccccc1`: inactive: 2.54%; `CCOP1(=S)c2c(C)nn(CCC#N)c2N=C(c2ccccc2F)N1C` (stereo unspecified): inactive: -9.75%.
The figure for `O=C(O)COc1ccc([As](=O)(O)O)cc1[N+](=O)[O-]` is inactive: 1.71%; for `NC(=O)Nc1ccc([As](=O)(O)O)cc1` it is inactive: 20.4%.
Regarding `CN(C(=O)Cc1ccccc1)[C@@H]1CC[C@]2(CCCO2)C[C@H]1N1CCCC1`, the inhibition was inactive: 22.3%.
For the compound `CCOP1(=S)c2c(C)nn(CCC#N)c2N=C(c2ccc(F)cc2)N1C` (stereo unspecified), the inhibition was inactive: 10.2%.
Next, `N#CCCN(C(=O)COC(=O)C(O)(c1ccccc1)c1ccccc1)c1ccc(F)cc1`: inactive: -4.65%; `O=[N+]([O-])c1ccc2c(c1)nnn2O`: inactive: 19%; `O=C(OC1CN2CCC1CC2)c1ccc(Cl)cc1` (stereo unspecified): inactive: 5.96%.
Consider `CS(=O)(=O)c1ccc(Cl)c(NC(=O)COC(=O)C(O)(c2ccccc2)c2ccccc2)c1`, for which the inhibition is inactive: 7.48%.
Next, `O=[As](O)(O)c1cccnc1`: inactive: 22.4%.
The figure for `COc1cc(C(=O)NCC2(N3CCOCC3)CCCCC2)cc(Cl)c1OC(C)C` is inactive: -7.83%; for `O=[As](O)(c1cccc(O)c1)c1cccc(O)c1` it is inactive: -4.22%.
Turning to `Nc1cccc2c([As](=O)(O)O)cccc12`, the inhibition was inactive: 23.4%.
The figure for `Cc1ccc(NCCc2c([N+](=O)[O-])cc([N+](=O)[O-])cc2[N+](=O)[O-])cc1` is inactive: 32.4%.
Next, `CCOP(=O)(Nc1cccc2ccccc12)OCC`: inactive: -1.08%; `O=P1(Nc2nc3ccc(Cl)cc3s2)COc2ccccc2O1` (stereo unspecified): inactive: 5.1%.
For the compound `CC(C)(C)C(=O)NC(Sc1ccccc1)C(Cl)(Cl)Cl` (stereo unspecified), the inhibition was inactive: -11.4%.
In the case of `CCc1cc(O)c([N+](=O)[O-])c(C)c1[N+](=O)[O-]`, the inhibition is inactive: 2.73%.
Next, `Cc1ccccc1CN(C)C(=O)COC(=O)C(O)(c1ccccc1)c1ccccc1`: inactive: -0.25%; `COC(=O)C1(C)COP(=O)(NCc2ccccc2)OC1` (stereo unspecified): inactive: -2.98%; `CC(=O)Nc1ccc(Oc2c([N+](=O)[O-])cc([N+](=O)[O-])cc2[N+](=O)[O-])cc1`: inactive: 8.97%.
The figure for `CC(=O)Nc1ccc([As](=O)(O)O)c(O)c1` is inactive: 17.3%; for `CCOC(=O)NC(Sc1ccccc1)C(Cl)(Cl)Cl` (stereo unspecified) it is inactive: -0.6%; for `c1ccc(-c2nn[nH]n2)c(-c2nn[nH]n2)c1` it is inactive: -1.33%.
Next, `O=C(NC1CCS(=O)(=O)C1)NP(=S)(Oc1ccccc1)Oc1ccccc1` (stereo unspecified): inactive: -0.18%; `CCNC(=S)/N=C(\N)N[N+](=O)[O-]`: inactive: -0.55%; `O=P1(N(CCCl)CCCl)OCCC2CCCCN21` (stereo unspecified): inactive: 1.88%.
`CCC(=O)N1C2C3N(C(=O)CC)C1C1N(C(=O)CC)C(C(N1C(=O)CC)N3C(=O)CC)N2C(=O)CC`: the inhibition was inactive: 29.2%.
Next, `COC(=O)c1cc2c(s1)N=C(c1ccccc1)N(C)P2(=O)N1CCOCC1` (stereo unspecified): inactive: -6.29% and inactive: -4.92%.
With `O=c1c2cc([N+](=O)[O-])ccc2[nH]c2c([N+](=O)[O-])cc([N+](=O)[O-])cc12`, the inhibition is inactive: -11.5%.
The figure for `CN(C)C(=O)Oc1noc2ccccc12` is inactive: 3.92%.
Next, `Cc1ccccc1OP(=O)(Nc1ccccn1)Oc1ccccc1C`: inactive: -0.15%; `CN(C)C1(CNC(=O)c2ccc(Cl)c(S(N)(=O)=O)c2)CCCCC1`: inactive: 0%; `O=P(Nc1ccccn1)(c1ccc(Br)cc1)c1ccc(Br)cc1`: inactive: -3.08%.
The figure for `COc1ccc(N)c([N+](=O)[O-])c1[N+](=O)[O-]` is inactive: 3.74%; for `O=[As](O)(c1ccccc1)c1ccc(O)cc1` it is inactive: 3.61%.
For `O=[N+]([O-])c1ncn(CCn2cnc([N+](=O)[O-])n2)n1`, the inhibition is inactive: 15%.
Next, `CC(=O)NC(SC(=S)N(C)C)C(Cl)(Cl)Cl` (stereo unspecified): inactive: -4.05%; `O=[N+]([O-])c1ccc(O)c(/C=N/Nc2ccc([N+](=O)[O-])cc2[N+](=O)[O-])c1`: inactive: 1.85%.
Next, `O=C(OC1CN2CCC1CC2)c1cccc(Cl)c1` (stereo unspecified): inactive: -4.18%; `C(Cc1nn[nH]n1)Cc1nn[nH]n1`: inactive: 7.64%; `O=P(Nc1nccs1)(c1ccccc1)c1ccccc1`: inactive: -4.61%.
The figure for `c1nnnn1CCn1cnnn1` is inactive: -3.36%.
Regarding `COc1ccc(C2=NCC(CBr)S2)cc1` (stereo unspecified), the inhibition was inactive: 24.9%.
With `O=[N+]([O-])c1cc([N+](=O)[O-])c(CCNc2ccccc2)c([N+](=O)[O-])c1`, the inhibition is inactive: 27.7%.
Next, `Cc1ccc(NP(=O)(Oc2ccccc2)Oc2ccccc2)nc1`: inactive: -11%.
